Measured values from several laboratories, pooled; numbers as filed in NIAID ChemDB.

Shared fields: whole-cell or culture tests; organism: HIV-1; cells: PBMC; endpoint: EC50

ECn is the concentration giving n% inhibition of infection, replication or growth.

smiles	strain or isolate	method	result
O=C(Nc1cc(S(=O)(=O)O)cc2cc(S(=O)(=O)O)c(N=Nc3ccc(N=Nc4c(S(=O)(=O)O)cc5cc(S(=O)(=O)O)cc(NC(=O)c6cccc(Cl)c6Cl)c5c4O)cc3)c(O)c12)c1ccc(Cl)cc1Cl	ADA	p24	0.8 µM
Nc1ccn([C@H]2S[C@@H](CO)C=C2F)c(=O)n1	LAV	RT activity	0.12 µM
Cc1nc(CCCCCCC(=O)c2ccccc2)n2nc(NCCCCCCCCNCc3cn([C@H]4C=C[C@@H](CO)O4)c(=O)[nH]c3=O)ccc12	IIIB	RT activity	0.1 µM
C=CC(C)(/C=C\c1ccc(O)cc1)c1ccc(O)cc1.NC(=O)NO	6366	p24	0.00065 µM
Cc1nc(CCCCCCC(=O)c2ccccc2)n2nc(NCCCCCCCCCCCCN)ccc12	IIIB	RT activity	>10 µM
Cc1cc(=O)oc2c3c(c(CN)cc12)OC(C)(C)[C@H](OC(=O)C12CCC(C)(C(=O)O1)C2(C)C)[C@@H]3OC(=O)C12CCC(C)(C(=O)O1)C2(C)C	IIIB	p24	0.001 µg/mL
Cc1nc(CCCCCCC(=O)c2ccccc2)n2nc(NCCCCCCNCc3cn([C@H]4C=C[C@@H](CO)O4)c(=O)[nH]c3=O)ccc12	IIIB	RT activity	0.03 µM
CCCC(=O)Nc1nc(N)nc2c1ncn2[C@H]1CO[C@@H](COP(=O)(N[C@@H](C)C(=O)OCC)Oc2ccccc2)O1	LAV-1	RT activity	1.2 µM
Cc1cn([C@H]2C=C[C@@H](COC(=O)CCCCCCCCCCC(=O)O)O2)c(=O)[nH]c1=O	US/92/727	XTT	0.0183 µM
Nc1ncnc2c1ncn2[C@@H]1O[C@@H](CO)CC1(F)F	LAV	-	>100 µM
C[C@H](Cn1cnc2c(N)ncnc21)OCP(=O)(O)O	92US660	p24 / ELISA	4.35 µM
Cn1cc(NC(=O)Nc2cc(C(=O)Nc3cc(C(=O)Nc4ccc(P(=O)(O)O)c5cc(P(=O)(O)O)ccc45)n(C)c3)n(C)c2)cc1C(=O)Nc1cc(C(=O)Nc2ccc(P(=O)(O)O)c3cc(P(=O)(O)O)ccc23)n(C)c1	BaL	cytopathic effect / XTT	6.1 µM
Nc1nc(=O)n([C@H]2O[C@@H](CO)CC2(F)F)cc1I	LAV	-	>100 µM
OC[C@@H]1C[C@H](n2cnc3c(=S)nc[nH]c32)[C@@H](O)[C@H]1O	-	-	49.8 µM
NCC(NC(=O)c1ccc(-c2ccc3c(c2)OCO3)[nH]1)c1ncc(CO)s1	BaL	p24 / ELISA	1.9 µM
Cc1cn([C@@H]2O[C@@H](CO)CC2(F)F)c(=O)[nH]c1=O	LAV	-	>100 µM
CO[C@H]1C[C@@H]2CC[C@@H](C)[C@@](O)(O2)C(=O)C(=O)N2CCCC[C@H]2C(=O)O[C@H]([C@H](C)C[C@@H]2CC[C@@H](O)[C@H](OC)C2)CC(=O)[C@H](C)/C=C(\C)[C@@H](O)[C@@H](OC)C(=O)[C@H](C)C[C@H](C)/C=C/C=C/C=C/1C	CC101.19 R5 AD101-resistant	p24	<0.0005 µM
Cc1cn([C@H]2C[C@H](N=[N+]=[N-])[C@@H](CO)O2)c(=O)[nH]c1=O	MJ4	p24 / ELISA	0.49 µM
CCOCn1c(Cc2ccccc2)c(C(C)C)c(=O)[nH]c1=O	CC3	p24	0.04 µM
O=C(CN1c2c(-c3ccccc3)n[nH]c2-c2ccccc2S1(=O)=O)N/N=C/c1ccc(Br)cc1	-	-	4.1 µM
O=C(Nc1nc2ccc(C(F)(F)F)cc2s1)c1cnc(C(F)(F)F)s1	IIIB	flow cytometry	0.738 µM
CC1(C)Oc2ccc3cc(CBr)c(=O)oc3c2[C@@H](OC(=O)C23CCC(C)(C(=O)O2)C3(C)C)[C@H]1OC(=O)C12CCC(C)(C(=O)O1)C2(C)C	IIIB	p24	0.0854 µg/mL
COC(=O)[C@H](C)NP(=O)(OC[C@@H]1C=C[C@H](n2cc(C)c(=O)[nH]c2=O)O1)Oc1ccc(Cl)cc1	IIIB	p24	0.001 µM
Cc1c(CBr)c(=O)oc2c3c(ccc12)OC(C)(C)[C@H](OC(=O)C12CCC(C)(C(=O)O1)C2(C)C)[C@@H]3OC(=O)C12CCC(C)(C(=O)O1)C2(C)C	IIIB	p24	0.000192 µg/mL
Nc1ccn([C@@H]2O[C@@H](CO)CC2(F)F)c(=O)n1	LAV	-	>100 µM
CC(C)(C)NC(=O)[C@@H]1C[C@@H]2CCCC[C@@H]2CN1C[C@@H](O)[C@H](Cc1ccccc1)NC(=O)[C@@H](NC(=O)Cc1cc2c(O)cccc2cn1)C(C)(C)S(C)(=O)=O	NL4-3	-	0.019 µM
Cc1cc(=O)oc2c3c(c(CBr)cc12)OC(C)(C)[C@H](OC(=O)C12CCC(C)(C(=O)O1)C2(C)C)[C@@H]3OC(=O)C12CCC(C)(C(=O)O1)C2(C)C	IIIB	p24	0.025 µg/mL
Cc1cn([C@H]2C[C@H](N=[N+]=[N-])[C@@H](COP(=O)(OCCSC(=O)C(C)(C)C)OCCSC(=O)C(C)(C)C)O2)c(=O)[nH]c1=O	BaL	RT activity	0.062 µM
Cc1ccc(-c2nnc3ccc4c(C(F)(F)F)cc(C(F)(F)F)nc4n23)cc1	Isolate 2076	p24	18 µM
Cc1nc(CCCCCCC(=O)c2ccccc2)n2nc(NCCCCCCCCCCNCc3cn([C@H]4C=C[C@@H](CO)O4)c(=O)[nH]c3=O)ccc12	IIIB	RT activity	0.035 µM
CC(=O)OC[C@H]1O[C@@H](SCCOP(=O)(O)OC[C@H]2O[C@@H](n3cc(C)c(=O)[nH]c3=O)C[C@@H]2N=[N+]=[N-])[C@H](OC(C)=O)[C@@H](OC(C)=O)[C@@H]1OC(C)=O	BaL	RT activity	0.01 µM
NC(=O)c1cccc(N=O)c1	WEJO	p24	1.5 µM
CCN(CC)c1ccc(/C=N/NC(=O)CN2c3c(-c4ccccc4)n[nH]c3-c3ccccc3S2(=O)=O)cc1	-	-	27.2 µM
CCCCCCCCCCCC(=O)Nc1nc(N)nc2c1ncn2[C@H]1CO[C@@H](COP(=O)(N[C@@H](C)C(=O)OCC)Oc2ccccc2)O1	LAV-1	RT activity	0.98 µM
Nc1ccn([C@@H]2C=C[C@H](CO)O2)c(=O)n1	xxBRU	RT activity	0.17 µM
CCn1cc(C(=O)O)c(=O)c2cc(F)c(N3CCN(c4ccccc4OC)CC3)c(OC(F)F)c21	-	p24	0.32 µM
CC1(C)Oc2c(CBr)cc3ccc(=O)oc3c2[C@@H](OC(=O)C23CCC(C)(C(=O)O2)C3(C)C)[C@H]1OC(=O)C12CCC(C)(C(=O)O1)C2(C)C	IIIB	p24	0.0176 µg/mL
NCC(=O)N1CCC[C@H]1C(=O)NCC(N)=O	Clinical isolates	p24	14 µM
CC(=O)N1CCC(C(=O)N(CCCN2CCC(Cc3ccc(C(N)=O)cc3)CC2)c2ccc(C)c(Cl)c2)CC1	HNK Clinical isolates	p24	0.0017 µM
Nc1ccn([C@H]2CO[C@@H](CO)S2)c(=O)n1	NL4-3	p24	7.2 µM
COC(=O)[C@H](C)NP(=O)(OC[C@@H]1C=C[C@H](n2cc(C)c(=O)[nH]c2=O)O1)Oc1ccc(Br)cc1Cl	IIIB	p24	0.001 µM
N#CC1C=Cc2ccccc2N1C(=O)c1ccc(Cl)cc1	D34	p24	<1 µM
O=C(CNC(=O)COc1ccccc1)NCc1ccc(C(=O)N2CCCCC2)cc1	92UG031	RT activity	17.8 µM
O=c1[nH]c(=O)n([C@@H]2O[C@@H](CO)CC2(F)F)cc1I	LAV	-	>100 µM
O=C(CN1c2c(-c3ccccc3)n[nH]c2-c2ccccc2S1(=O)=O)N/N=C/c1ccccc1F	-	-	>100 µM
Cc1nc(CCCCCCC(=O)c2ccccc2)n2nc(NCCCCCCCCCCN)ccc12	IIIB	RT activity	>10 µM
COC(=O)[C@H](C)NP(=O)(OC[C@@H]1C=C[C@H](n2cc(C)c(=O)[nH]c2=O)O1)Oc1ccc(F)cc1	IIIB	p24	0.001 µM
Cc1cn([C@H]2C[C@H](N=[N+]=[N-])[C@@H](CO)O2)c(=O)[nH]c1=O	KM018	p24 / ELISA	0.00917 µM
O=C(CN1c2c(-c3ccccc3)n[nH]c2-c2ccccc2S1(=O)=O)N/N=C/c1cccc(Cl)c1	-	-	2.2 µM
Cc1cn([C@H]2C[C@H](N=[N+]=[N-])[C@@H](COC(=O)OC[C@@H]3O[C@H]3CO)O2)c(=O)[nH]c1=O	BaL	ELISA	0.066 µM
Cc1nc(CCCCCCC(=O)c2ccccc2)n2nc(Cl)ccc12	IIIB	RT activity	0.9 µM
Cc1cn([C@H]2C[C@H](N=[N+]=[N-])[C@@H](COP(=O)(O)OCCS[C@@H]3O[C@H](CO)[C@@H](O)[C@H](O)[C@H]3O)O2)c(=O)[nH]c1=O	BaL	RT activity	0.02 µM
COC(=O)[C@H](C)NP(=O)(OC[C@@H]1C=C[C@H](n2cc(C)c(=O)[nH]c2=O)O1)Oc1ccc(C#N)cc1	IIIB	p24	0.001 µM
O=c1[nH]cnc2c1ncn2C1OC(CO)CC1(F)F	LAV	-	>100 µM
COP(=O)(c1cc(C)cc(CCC#N)c1)c1c(C(N)=O)[nH]c2ccc(Cl)c(F)c12	NL4-3	-	0.0015 µM
CCc1c(Cc2ccccc2)nc(SCSC)[nH]c1=O	IIIB	MTT / p24	0.8 µM
Cc1ccc(-c2ccc3c(c2)C=C(C(=O)Nc2ccc(C[N+](C)(C)C4CCOCC4)cc2)CCC3)cc1	TB9 CLADE C	p24	<1 µM
CCOC(=O)[C@H](C)NP(=O)(OC[C@@H]1OC[C@H](n2cnc3c(NC(C)=O)nc(N)nc32)O1)Oc1ccccc1	LAV-1	RT activity	19 µM

The first 6 rows once more:

smiles | strain or isolate | method | result
O=C(Nc1cc(S(=O)(=O)O)cc2cc(S(=O)(=O)O)c(N=Nc3ccc(N=Nc4c(S(=O)(=O)O)cc5cc(S(=O)(=O)O)cc(NC(=O)c6cccc(Cl)c6Cl)c5c4O)cc3)c(O)c12)c1ccc(Cl)cc1Cl | ADA | p24 | 0.8 µM
Nc1ccn([C@H]2S[C@@H](CO)C=C2F)c(=O)n1 | LAV | RT activity | 0.12 µM
Cc1nc(CCCCCCC(=O)c2ccccc2)n2nc(NCCCCCCCCNCc3cn([C@H]4C=C[C@@H](CO)O4)c(=O)[nH]c3=O)ccc12 | IIIB | RT activity | 0.1 µM
C=CC(C)(/C=C\c1ccc(O)cc1)c1ccc(O)cc1.NC(=O)NO | 6366 | p24 | 0.00065 µM
Cc1nc(CCCCCCC(=O)c2ccccc2)n2nc(NCCCCCCCCCCCCN)ccc12 | IIIB | RT activity | >10 µM
Cc1cc(=O)oc2c3c(c(CN)cc12)OC(C)(C)[C@H](OC(=O)C12CCC(C)(C(=O)O1)C2(C)C)[C@@H]3OC(=O)C12CCC(C)(C(=O)O1)C2(C)C | IIIB | p24 | 0.001 µg/mL

Neighbouring rows are from separate reports. Blank or dashed fields: not listed here.